Tested on: porcine reproductive and respiratory syndrome virus LMY strain
Assay: Viral antigen expression (Western blot, immunofluorescence) in infected MARC-145 cells
Type: cell-based
Conditions: PRRSV matrix protein, 1, 10, 20 μM (FIG. 15F)

Row | Structure (SMILES) | expression levels of the viral antigen in infected cells
1 | CCN(CC)C(=O)Nc1cccc(-c2ccc(N(C)C)cc2)c1 [DABPU-DE] | higher inhibitory effects of DABPU-DE than DABPU-EM
2 | CCN(C)C(=O)Nc1cccc(-c2ccc(N(C)C)cc2)c1 [DABPU-EM, 3-(4′-(dimethylamino)-(1,1′-biphenyl)-3-yl)-1-ethyl-1-methylurea] | inhibitory activity
